Experimental data as given in patent US20240109955A1 (published 2024).

Tests used:
Test in all cases: cell-based or functional assay
[1] = target: SARS-CoV-2 spike (S) protein, Omicron sublineage BQ.1.1 (SARS-CoV-2)
[2] = target: SARS-CoV-2 spike (S) protein, Omicron sublineage XBB (SARS-CoV-2)
[3] = target: SARS-CoV-2 spike (S) protein, Omicron sublineage BA.2.75.2 (SARS-CoV-2)
[4] = target: SARS-CoV-2 spike (S) protein, Omicron sublineage BA.4/5 (SARS-CoV-2)
[5] = target: SARS-CoV-2 spike (S) protein, Omicron sublineage BQ.1 (SARS-CoV-2)

B1: MX1064 (trispecific antibody)
chain 1: EIVMTQSPAILSVSPGERATLSCRASQSVAINLAWYQQKPGQAPRLLIYAASSRATGIPGRFSGSGSETNFTLTISSLQSGDFAVYYCQQYITWPPSYTFGQGTKLEIKGGSSGQTVVTQEPSFSVSPGGTVTLTCGLSSGSVSTAYFPSWYQQTPGQAPRTLIYGTNTRSSGVPDRFSGSILGNKAALTITGAQADDESDYYCVLYMGRGIVVFGGGTKLTVLGGGGSGGSGSGGGGSASGSGQVQLVESGGGVVQPGRSLRLSCAASGFTLSSYGMHWVRQAPGKGLEWVAVISYDGSNKYYVDSVKGRFTISRDNSKNTLYLQMNSLRAEDTAVYYCRWAYWELLPDYYYGMDVWGQGTTVTVSSGGSSGEVQLVESGGALIQPGGSLRLSCAASGIIVSANYMSWVRQAPGKGLEWVSVIYSGGSTFYADSVKGRFTISRDNSKNTLYLEMNSLRAEDTAVYYCARDAPILGVSDWGQGTLVTVSSASGGSGDKTHTCPPCPAPELLGGPSVFLFPPKPKDTLMISRTPEVTCVVVDVSHEDPEVKFNWYVDGVEVHNAKTKPREEQYNSYVVSVLTVLHQDWLNGKEYKCKVSNKALPAPIEKTISKAKGQPREPQVYTLPPCRDELTKNQVSLWCLVKGFYPSDIAVEWESNGQPENNYKTTPPVLDSDGSFFKKLTVDKSRWQQGNVFSCSVLHEALHSHYTQKSLSLSPG
chain 2: DTVMTQSPLSLPVTPGEPASISCRSSQSLLNSNGYNYLDWYVQKPGQSPQLLIYLGSNRASGVPDRFSGSGSGTDFTLKISRVEAEDVGVYYCMQPLQTPLFTFGPGTKVEIKGGSSGEIVMTQSPAILSVSPGERATLSCRASQSVAINLAWYQQKPGQAPRLLIYAASSRATGIPGRFSGSGSETNFTLTISSLQSGDFAVYYCQQYITWPPSYTFGQGTKLEIKGGGGSGGSGSGGGGSASGSGEVQLVESGGALIQPGGSLRLSCAASGIIVSANYMSWVRQAPGKGLEWVSVIYSGGSTFYADSVKGRFTISRDNSKNTLYLEMNSLRAEDTAVYYCARDAPILGVSDWGQGTLVTVSSGGSSGQVTLRESGPALVKPTQTLTLTCTFSGFSLSTRGVCVSWIRQPPGKALEWLAFIDWDDDKYYNTSLKTRLTISKDTSKNQVVLTMTNVHPVDTATYYCARISSHHGSSWCTTFDYWGQGALVTVSAASGGSGDKTHTCPPCPAPELLGGPSVFLFPPKPKDTLMISRTPEVTCVVVDVSHEDPEVKFNWYVDGVEVHNAKTKPREEQYNSYVVSVLTVLHQDWLNGKEYKCKVSNKALPAPIEKTISKAKGQPREPQVCTLPPSRDELTKNQVSLSCAVKGFYPSDIAVEWESNGQPENNYKTTPPVLDSDGSFFLVSKLTVDKSRWQQGNVFSCSVLHEALHSHYTQKSLSLSPG
**Q.** B1 was tested. Which “IC50, pseudovirus neutralization” value [1] did it give?
**A.** The value was 0.013 µg/mL.

**Q.** And the “IC80, pseudovirus neutralization” value [1]?
**A.** The value was 0.0326 µg/mL.

**Q.** And the “IC50, pseudovirus neutralization” value [2]?
**A.** The value was 0.00612 µg/mL.

**Q.** And the “IC80, pseudovirus neutralization” value [2]?
**A.** Its value is 0.0247 µg/mL.

**Q.** What about the “IC50, pseudovirus neutralization” value [3] of the same binder?
**A.** The value was 0.0144 µg/mL.

**Q.** And the “IC80, pseudovirus neutralization” value [3]?
**A.** The value was 0.0351 µg/mL.

**Q.** What about the “IC50, pseudovirus neutralization” value [4] of the same binder?
**A.** Its value is 0.00574 µg/mL.

**Q.** And the “IC80, pseudovirus neutralization” value [4]?
**A.** The value was 0.0178 µg/mL.

**Q.** What about the “IC50, pseudovirus neutralization” value [5] of the same binder?
**A.** The value was 0.0156 µg/mL.

**Q.** And the “IC80, pseudovirus neutralization” value [5]?
**A.** The value was 0.0429 µg/mL.
